How the values were obtained:
[1] = system: Huh-7 cells containing HCV Con1 subgenomic replicon (GS4.1 cells); assay: Cytotoxicity (CC50) reported with the HCV replicon ELISA assay; conditions: Tables 1 and 2
[2] = system: Huh-7-derived cell line (Zluc) that harbors an HCV genotype 1b replicon and a luciferase reporter gene; assay: HCV Replicon Assay in Human Serum; type: cell-based; conditions: Zluc cells, 10% fetal bovine serum (reference), three days
[3] = system: HCV Con1 subgenomic replicon of genotype 1b (GS4.1 cells); assay: HCV Replicon ELISA Assay; type: cell-based, HCV genotype 1b; conditions: for EC50: GS4.1 cells, 72 hr, NS4A ELISA; for IC50: Tables 1 and 2, from % inhibition versus concentration data

Row | Compound | CC50 [1] [µM] | EC50 [2] [µM] | EC50 [3] [µM] | IC50 [3] [µM]
1 | COP(=O)(Nc1nc(-c2ccc(-c3cc4ncccn4n3)cc2)sc1C(=O)O)c1ccc(C)cc1C (centres unmarked) | > 8.3 | < 0.1 | < 0.1 | < 0.1
2 | 5-Thiazolecarboxylic methyl ester, 4-N-[(2,4-dimethyl-phenyl)-phosphonamidate methyl ester]-2-[4-chloro-phenyl] | > 8.3 |  | > 8.3 | 0.1 to 8.3
3 | COP(=O)(Nc1nc(-c2ccc(-c3cc4ccccc4o3)cc2)sc1C(=O)O)c1ccc(C)cc1C (centres unmarked) | 0.1 to 8.3 |  | < 0.1 | < 0.1
4 | COP(=O)(Nc1nc(-c2ccccc2)sc1C(=O)O)c1ccc(C)cc1C (centres unmarked) | > 8.3 |  | > 8.3 | 0.1 to 8.3
5 | COc1ccc(-c2nc(NP(=O)(OC)c3ccc(C)cc3C)c(C(=O)O)s2)cc1 (centres unmarked) | > 8.3 |  | > 8.3 | 0.1 to 8.3
6 | COP(=O)(Nc1nc(-c2ccc(-c3cc4ncccc4o3)cc2)sc1C(=O)O)c1ccc(C)cc1C (centres unmarked) | > 8.3 | < 0.1 | < 0.1 | < 0.1

— patent publication US8193372B2, “Phosphothiophene and phosphothiazole HCV polymerase inhibitors” (Idenix Pharmaceuticals, Inc., priority 2009, dated 2012)
